For this assay, the target named is T1, Sup35NM-CFP (S. cerevisiae, UniProt P05453 1-253).
T1 construct: Sup35 (translation termination factor eRF3) of S. cerevisiae, NM-domain (prion-forming domain); The cells also hold endogenous Sup35 ([PSI+] prion); also called Sup35 prion-forming domain fused to CFP; source: S. cerevisiae 74-D694, from pCUP-NM-CFP (pRS313 based), in cells
T1 sequence (looked up): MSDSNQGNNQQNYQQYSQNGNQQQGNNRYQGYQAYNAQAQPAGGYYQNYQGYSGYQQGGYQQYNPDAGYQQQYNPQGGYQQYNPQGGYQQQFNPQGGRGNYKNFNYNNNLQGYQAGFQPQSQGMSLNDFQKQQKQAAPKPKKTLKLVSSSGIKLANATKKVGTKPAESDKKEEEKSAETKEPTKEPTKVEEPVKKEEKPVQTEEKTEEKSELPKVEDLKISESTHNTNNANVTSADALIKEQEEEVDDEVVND
The assay is described as follows: FRET or BRET.

The results in this text go back to publication PMC6422396, “Amyloid properties of the yeast cell wall protein Toh1 and its interaction with prion proteins Rnq1 and Sup35” (Prion, 2018).

B1: Toh1(20–365)-YFP hybrid protein (domain or fragment, S. cerevisiae, UniProt P46992 20-365, looked up)
chain: SGPQSYQKLDFTNVGFTGSYVDVNKFKDITNNESCTCEVGDRVWFSGKNAPLADYLSVHFRGPLKLKQFAFYTSPGFTVNNSRSSSDWNRLAYYESSSKTADNVTFLNHGGEASPCLGNALSYASSNGTGSASEATVLADGTLISSDQEYIIYSNVSCPKSGYDKGCGVYRSGIPAYYGYGGTTKMFLFEFEMPTETEKNSSSIGYYDLPAIWLLNDHIARTSQYPTNANCSCWASGCGEYDIFEAMNGTEKNHLYSTFHTFQGIEDLGTGIQSYGYITRNTTGTMKGGVVFDSSGNVVSFISDATPFNGTVSADTVNDLLAAIPENETYSSQLMSISATAPSTTS
notes: Toh1, GPI-anchored cell wall protein of S. cerevisiae, internal fragment amino acids 20–365, without the N-terminal signal peptide and the C-terminal peptide
B1 had an FRET efficiency of 3.9%.
